The record followed here is patent US20070160981A1 (priority 2005, published 2007).

This experiment has as its target SARS-CoV PLP2 (Severe acute respiratory syndrome coronavirus, UniProt P0C6U8). It is filed as biochemical.

For the substance Thimerosal, the “found in the screen for inhibitor of SARS-CoV PLP2” value is reported as “found”.
